Reference: patent US10947274

Biological target: human α9α10 nicotinic acetylcholine receptor (nAChR) (human) (UniProt Q9UGM1)
Assay: cell-based or functional assay

Substance	IC50 (nM), block of the acetylcholine response, voltage-clamped Xenopus oocytes	fold potency against [C3Pen;14R]RgIA5 (SEQ ID NO: 41)
[C3Pen;Y13bhY;14r]RgIA4 (peptide; modification not given)	2.1 nM	
[C3Pen;Y13bhY;14R]RgIA5 (peptide; modification not given)	0.055 nM	9 fold
